HIV-1 5' UTR: effect of mutations on RNA dimer formation

RNA: 5' end of the HIV-1 NL4-3 genome, made in vitro. Positions 1-437 read:
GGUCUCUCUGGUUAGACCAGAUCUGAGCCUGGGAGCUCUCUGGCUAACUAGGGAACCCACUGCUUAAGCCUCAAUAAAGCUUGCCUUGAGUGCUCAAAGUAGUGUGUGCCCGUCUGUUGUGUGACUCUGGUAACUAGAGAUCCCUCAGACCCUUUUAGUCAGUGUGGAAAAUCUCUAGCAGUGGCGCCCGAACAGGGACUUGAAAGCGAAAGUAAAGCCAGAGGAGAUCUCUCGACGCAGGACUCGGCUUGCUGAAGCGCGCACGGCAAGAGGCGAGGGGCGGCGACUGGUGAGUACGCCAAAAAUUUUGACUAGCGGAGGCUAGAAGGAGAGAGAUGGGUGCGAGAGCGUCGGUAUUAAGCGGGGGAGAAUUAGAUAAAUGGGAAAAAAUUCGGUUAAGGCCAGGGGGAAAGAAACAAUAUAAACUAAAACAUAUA

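Randomly mutated transcripts starting with one, two or three G (1G, 2G, 3G), capped or uncapped, were folded for 30 min at 37 °C. Monomer and dimer bands were cut from native gels after folding in high salt (300 mM KCl, 5 mM MgCl2) or low salt (40 mM KCl, 0.1 mM MgCl2). Mutation frequencies in the two bands give Kdimer.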

Scale: median log2 Kdimer over the changes at a position; positive = changes inhibit dimerization, negative = changes enhance it.
One numbering serves 1G, 2G and 3G.
A position is written with its base where known.
Bases beyond 437 are not listed in the source.

With U131 (domain PAS) the assay gave 1G capped low-salt 0.22; 2G uncapped low-salt 0.36; 2G uncapped high-salt 0.34; 3G uncapped low-salt 0.78.
With G195 (domain PBS) the assay gave 1G capped low-salt 0.38; 2G uncapped low-salt 0.37; 2G uncapped high-salt 0.60; 3G uncapped low-salt 0.78.
With A132 (domain PBS) the assay gave 1G capped low-salt 0.06; 2G uncapped low-salt -0.01; 2G uncapped high-salt 0.04; 3G uncapped low-salt -0.12.
With G181 (domain PBS) the assay gave 1G capped low-salt -0.52; 2G uncapped low-salt -0.64; 2G uncapped high-salt 0.00; 3G uncapped low-salt -0.77.
With A371 the assay gave 1G capped low-salt -0.19; 2G uncapped low-salt -0.27; 2G uncapped high-salt -0.14; 3G uncapped low-salt -0.53.
With C264 (domain SL1) the assay gave 1G capped low-salt 2.82; 2G uncapped low-salt 3.36; 2G uncapped high-salt 2.41; 3G uncapped low-salt 3.69.
With C152 (domain PBS) the assay gave 1G capped low-salt -0.06; 2G uncapped low-salt 0.03; 2G uncapped high-salt 0.06; 3G uncapped low-salt 0.02.
With A415 the assay gave 1G capped low-salt -0.02; 2G uncapped low-salt -0.02; 2G uncapped high-salt -0.01; 3G uncapped low-salt 0.02.
With G224 the assay gave 1G capped low-salt -0.18; 2G uncapped low-salt -0.45; 2G uncapped high-salt -0.25; 3G uncapped low-salt -0.46.
With G246 (domain SL1) the assay gave 1G capped low-salt 1.69; 2G uncapped low-salt 2.02; 2G uncapped high-salt 1.40; 3G uncapped low-salt 2.04.
With G186 (domain PBS) the assay gave 1G capped low-salt -0.42; 2G uncapped low-salt -0.37; 2G uncapped high-salt 0.01; 3G uncapped low-salt -0.37.
With A387 the assay gave 1G capped low-salt -0.08; 2G uncapped low-salt -0.03; 2G uncapped high-salt 0.04; 3G uncapped low-salt -0.02.
With G363 the assay gave 1G capped low-salt 0.07; 2G uncapped low-salt 0.28; 2G uncapped high-salt 0.21; 3G uncapped low-salt 0.34.
With position 440 the assay gave 1G capped low-salt -0.12; 2G uncapped low-salt 0.00; 2G uncapped high-salt 0.04; 3G uncapped low-salt 0.04.
With position 489 the assay gave 1G capped low-salt 0.04; 2G uncapped low-salt 0.03; 2G uncapped high-salt 0.04; 3G uncapped low-salt -0.02.
With C28 (domain TAR) the assay gave 1G capped low-salt -0.59; 2G uncapped low-salt -0.76; 2G uncapped high-salt -0.48; 3G uncapped low-salt -1.08.
With C352 the assay gave 1G capped low-salt -0.09; 2G uncapped low-salt -0.16; 2G uncapped high-salt 0.20; 3G uncapped low-salt -0.14.
With C187 (domain PBS) the assay gave 1G capped low-salt -0.19; 2G uncapped low-salt -0.24; 2G uncapped high-salt -0.04; 3G uncapped low-salt -0.22.
With C218 (domain antiPAS) the assay gave 1G capped low-salt -0.95; 2G uncapped low-salt -0.93; 2G uncapped high-salt -0.40; 3G uncapped low-salt -0.75.
With G99 (domain PolyA) the assay gave 1G capped low-salt 0.16; 2G uncapped low-salt 0.01; 2G uncapped high-salt 0.02; 3G uncapped low-salt -0.23.
With G394 the assay gave 1G capped low-salt -0.03; 2G uncapped low-salt -0.02; 2G uncapped high-salt 0.13; 3G uncapped low-salt 0.13.
With A404 the assay gave 1G capped low-salt -0.27; 2G uncapped low-salt -0.04; 2G uncapped high-salt 0.13; 3G uncapped low-salt 0.06.
With A47 (domain TAR) the assay gave 1G capped low-salt -0.20; 2G uncapped low-salt -0.34; 2G uncapped high-salt -0.13; 3G uncapped low-salt -0.21.

The opening 3 entries, copied out:

{"position": "U131", "domain": "PAS", "1G capped low-salt": 0.22, "2G uncapped low-salt": 0.36, "2G uncapped high-salt": 0.34, "3G uncapped low-salt": 0.78}
{"position": "G195", "domain": "PBS", "1G capped low-salt": 0.38, "2G uncapped low-salt": 0.37, "2G uncapped high-salt": 0.60, "3G uncapped low-salt": 0.78}
{"position": "A132", "domain": "PBS", "1G capped low-salt": 0.06, "2G uncapped low-salt": -0.01, "2G uncapped high-salt": 0.04, "3G uncapped low-salt": -0.12}

Values reported by Ye et al. 2022 (doi:10.1038/s41594-022-00746-2).